Compound potency records, mixed from different reports. Data source: NIAID ChemDB in PubChem.

Common to all: growth or infection tests; species: HIV-1; endpoint: fold resistance

Fold resistance: result on the changed form divided by that on wild type. Rows are shuffled and stem from different studies. Blank or dashed fields: not listed here.

smiles | cells | mutations | read by | strain | value
CC=CCOc1cc(NC(=S)c2ccoc2C)ccc1OC | CEM + CEM-SS | RT-D67N K70R L100I T215Y K219Q | cytopathic effect / XTT | 4xAZT/L100I(RT-D67N K70R T215Y K219Q L100I) | 23.3
CO/N=C(\C)COc1cc(NC(=S)OC(C)C)ccc1Cl | CEM | RT-V106A | syncytia |  | 28.5
Cc1occc1C(=S)Nc1ccc(Cl)c(C(=O)OCC2CC2)c1 | CEM + CEM-SS | RT-V179D | cytopathic effect / XTT | NL4-3 | 10
CNc1nc2ccc(S(=O)(=O)N(CC(C)C)C[C@@H](O)[C@H](Cc3ccccc3)NC(=O)c3cccc(N)c3C)cc2o1 | MT-4 | PR-L010F M046I M071V I084V | cytopathic effect / MTT | LAI | 40
C=CCSc1cc(NC(=S)OC(C)C)ccc1Cl | CEM | RT-L100I | syncytia |  | 17.6
Cc1c(N)cccc1C(=O)N[C@@H](Cc1ccccc1)[C@H](O)CN(CC(C)C)S(=O)(=O)c1ccc2nc(N)oc2c1 | MT-4 | PR-L010F M046I M071V I084V | cytopathic effect / MTT | LAI | 4.3
CC(C)OC(=O)c1cc(NC(=S)SC(C)C)ccc1Cl | CEM | RT-Y181C | syncytia |  | >1.54
CC1=C(C(=O)Nc2ccc(Cl)c(C(=O)OC(C)C)c2)SCCO1 | CEM | RT-Y181C | syncytia | IIIB | 1000
Cc1ccccc1OC(=O)c1cc(NC(=S)OC(C)C)ccc1Cl | CEM | RT-Y181C | syncytia |  | ≥25
Cc1occc1C(=S)Nc1ccc(Cl)c(/C=N/OC(C)(C)C)c1 | CEM + CEM-SS | RT-V179D | cytopathic effect / XTT | NL4-3 | 9.125
Cc1cc(S(N)(=O)=O)ccc1NC(=O)COc1ccc(Cl)cc1C(=O)c1cc(Cl)cc(Cl)c1 | HeLa + HELA CD4+ | RT-K103N | β-galactosidase | HXB2 | ~1
C/C=C\COc1cc(NC(=S)OC(C)C)ccc1OC | CEM | RT-Y181C | syncytia |  | 92.5
C=CCO/N=C/c1cc(NC(=S)c2ccoc2C)ccc1Cl | CEM + CEM-SS | RT-V179D | cytopathic effect / XTT | NL4-3 | 94.3
FC(F)(Sc1ncccn1)c1nc2ccccc2o1 |  | RT-L100I |  | OC/100 | 1.21
CCCc1cc(=O)oc2c3c(c4c(c12)OC(C)(C)CC4)O[C@H](C)[C@@H](C)C3=O |  | RT-Y181C K103N | cytopathic effect / XTT |  | <6
CC(C)OC(=S)Nc1ccc(Cl)c(C(=O)SC(C)C)c1 | CEM | RT-Y181C | syncytia |  | 30.1
CCCCCCCCCC[N+](C)(C)CCCNCc1c(O)cc2c(c1O)-c1cc(ccc1O)[C@H]1NC(=O)[C@@H]3NC(=O)C4NC(=O)[C@@H](Cc5ccc(c(Cl)c5)Oc5cc3cc(c5O)Oc3ccc(cc3Cl)[C@@H](O)[C@H](NC1=O)C(=O)N[C@@H]2C(=O)O)NC(=O)[C@H](N)c1ccc(O)c(c1)Oc1cc(O)cc4c1 | CEM | RT-Y188H | syncytia | RT-K188H | 2.14
CC(C)OC(=S)Nc1ccc(Cl)c(C(=O)OC2CC2)c1 | CEM | RT-L100I | syncytia |  | 22.6
Cc1occc1C(=S)Nc1ccc(Cl)c(C(=O)OC(C)C)c1 | CEM + CEM-SS | RT-V106A | cytopathic effect / XTT | NL4-3 | 20
Cc1ccnc(SC(F)(F)c2nc3ccccc3o2)n1 |  | RT-L100I |  | OC/100(RT-L100I | 5.67
N#Cc1cc(Cl)cc(Oc2c(Br)ccc(CC(=O)Nc3ccc(S(N)(=O)=O)cc3Cl)c2F)c1 | MT-4 | G190A |  |  | <1
Cc1cc(S(N)(=O)=O)ccc1NC(=O)COc1ccc(Cl)cc1C(=O)c1cccc(C#N)n1 | HeLa + HELA CD4+ | RT-G190A | β-galactosidase | HXB2 | ~1
CC(C)CN(C[C@@H](O)[C@H](Cc1ccccc1)NC(=O)OCc1cncs1)S(=O)(=O)c1ccc2nc(N)oc2c1 | MT-4 | PR-L010F M046I M071V I084V | cytopathic effect / MTT | LAI | 14
CC[C@@H](C)OC(=S)Nc1ccc(Cl)c(C(=O)OC(C)C)c1 | CEM | RT-L100I | syncytia |  | 14.9
Cc1cc(C#N)cc(C(=O)c2cc(Cl)ccc2OCC(=O)Nc2ccc(OCCCN3CC=CC3)cc2C)c1 | HeLa + HELA CD4+ | RT-K103N Y181C | β-galactosidase | HXB2 (RT-K103N Y181C) Recombinant | ~1
Cc1cc(C#N)cc(C)c1OCC(=O)N[C@@H](Cc1ccccc1)[C@H](O)CN(CC(C)C)S(=O)(=O)c1ccc2nc(N)oc2c1 | MT-4 | PR-L010F M046I M071V I084V | cytopathic effect / MTT | LAI | 35
Cc1cc(S(N)(=O)=O)ccc1NC(=O)COc1ccc(Cl)cc1C(=O)c1cc(F)cc(C(F)(F)F)c1 | HeLa + HELA CD4+ | RT-K103N P225H | β-galactosidase | HXB2 | ~1
CC(=O)OCCOC(=O)c1cc(NC(=S)OC(C)C)ccc1Cl | CEM | RT-Y181C | syncytia |  | ≥10
CCC(=O)c1ccc(F)c([C@@H]2C[C@@H]2NC(=O)Nc2ccc(C#N)cn2)c1O | TZM-bl | NNRTI-resistant (RT Y181C) | β-galactosidase / luminescence | LAI | 15.1
C#CCOc1cc(NC(=S)OC(C)C)ccc1Cl | CEM | RT-Y181C | syncytia |  | 37.5
CC(C)OC(=O)c1cc(NC(=S)OC(C)C)ccc1Cl | CEM | RT-Y181C | syncytia | IIIB | 66

The last 2 rows once more:

C#CCOc1cc(NC(=S)OC(C)C)ccc1Cl ; cells: CEM ; mutations: RT-Y181C ; read by: syncytia ; value: 37.5
CC(C)OC(=O)c1cc(NC(=S)OC(C)C)ccc1Cl ; cells: CEM ; mutations: RT-Y181C ; read by: syncytia ; strain: IIIB ; value: 66